Earlier results in publication PMC10409496.

Target: neuropilin-1 (Homo sapiens) (UniProt O14786)

For SARS-CoV-2 spike (from UniProt P0DTC2), the Kd is listed as 15 µM.
